Measured values reported in paper PMC10683372.
pKd: −log10 of the molar value. Like-named read-outs stand apart in the source and are kept apart here.

Columns and labels:
[1] = molecular target: [F]‐hirugen, N^α‐fluoresceinated hirugen; test: other fluorescence titration; thrombin (S195A by the methods) or its hirudin complex added to the fluoresceinated peptide (60 nM); excitation 492 nm, emission 516 nm; TBS, 25°C
[2] = molecular target: [F]‐hirugen, N^α‐fluoresceinated hirugen; test: as above; remark: listed apart in the source

Which results are given for “catalytically inactive αT S195A mutant (enzyme)”?
pKd [1]: 7.17; pKd [2]: 7.19
